Results of unrelated studies side by side (data: NIAID ChemDB).

Common to all: tests in culture; species: Mycobacterium avium complex; read-out: MIC

Conditions beyond the fields shown may differ between rows.

compound,strain,result
CCCCCCCCOC1O[C@@H](C(O)COC2O[C@@H](C(O)CO)[C@H](O)[C@H]2O)[C@H](O)[C@H]1O,NJ168,>128 µg/mL
COc1ccc(NCc2cnc3nc(N)nc(N)c3c2C)cc1OC,NJ168,≤0.13 µg/mL
CCCCCCCCO[C@H]1OC([C@@H](COCc2ccccc2)O[C@H]2O[C@H]([C@@H](O)CO)[C@@H](O)[C@@H]2O)[C@@H](OCc2ccccc2)[C@@H]1OCc1ccccc1,NJ3404,>128 µg/mL
O=C(NCCCl)N1CCC(CN=c2cc3n(-c4ccc(Cl)cc4)c4ccccc4nc-3cc2Nc2ccc(Cl)cc2)CC1,101,8 µg/mL
CC[C@H]1OC(=O)[C@H](C)[C@@H](O[C@H]2C[C@@](C)(OC)[C@@H](OC(C)=O)[C@H](C)O2)[C@H](C)[C@@H](OC2O[C@H](C)C[C@H](N(C)C)[C@H]2OC(=O)NC)C(C)(O)C[C@@H](C)/C(=N\OCCCC2CCCCC2)[C@H](C)[C@@H](O)[C@]1(C)O,20096,3.13 µg/mL
COc1cccc2c1[n+]([O-])c1cccc(O)c1[n+]2[O-],109,≥8 µg/mL
CC[C@@]1(O)OC(=O)[C@H](C)[C@@H](O[C@H]2C[C@@](C)(OC)[C@@H](O)[C@H](C)O2)[C@H](C)[C@@H](O[C@@H]2O[C@H](C)C[C@H](N(C)C)[C@H]2O)[C@](C)(OC)C[C@@H](C)C(=O)[C@H](C)[C@@H](O)[C@]1(C)O,LV-2,8 µg/mL
CN[C@@H]1[C@@H](O)C(O[C@@H]2[C@@H](O)[C@H](OC3O[C@H](CN)[C@@H](O)[C@H](O)[C@H]3O)[C@@H](N)C[C@H]2NC(=O)[C@@H](O)CN)OC[C@]1(C)O,T15,12.5 µg/mL
CC[C@H]1OC(=O)[C@H](C)[C@@H](OC2C[C@@](C)(OC)[C@@H](OC(=O)Cc3ccccc3)[C@H](C)O2)[C@H](C)[C@@H](O[C@@H]2O[C@H](C)C[C@H](N(C)C)[C@H]2O)C(C)(O)C[C@@H](C)/C(=N\OCCCOc2ccccc2)[C@H](C)[C@@H](O)[C@]1(C)O,20039 (clarithromycin-susceptible),0.78 µg/mL
Cc1c(CNc2ccc3ncccc3c2)cnc2nc(N)nc(N)c12,NJ168,≤0.13 µg/mL
CC[C@H]1OC(=O)[C@H](C)[C@@H](O[C@H]2C[C@@](C)(OC)[C@@H](OC(C)=O)[C@H](C)O2)[C@H](C)[C@@H](O[C@@H]2O[C@H](C)C[C@H](N(C)C)[C@H]2O)C(C)(O)C[C@@H](C)/C(=N\OCCCc2ccccc2)[C@H](C)[C@@H](O)[C@]1(C)O,20039 (clarithromycin-susceptible),1.56 µg/mL
Cc1cc(NCc2cnc3nc(N)nc(N)c3c2C)ccc1Br,NJ168,≤0.13 µg/mL
CC[C@H]1OC(=O)[C@H](C)[C@@H](O[C@H]2C[C@@](C)(OC)[C@@H](OC(C)=O)[C@H](C)O2)[C@H](C)[C@@H](OC2O[C@H](C)C[C@H](N(C)C)[C@H]2OC(=O)NCC(=O)NC)C(C)(O)C[C@@H](C)/C(=N\OCCCC2CCCCC2)[C@H](C)[C@@H](O)[C@]1(C)O,20034,0.78 µg/mL
Cc1ccccc1CSc1nc(=O)[nH]c2nc[nH]c12,NJ211,>12.8 µg/mL
C[C@@H]1CN(c2c(F)c(N)c3c(=O)c(C(=O)O)cn(C4CC4)c3c2F)C[C@H](C)N1,Isolate 90-0779,0.5 µg/mL
CC(C)NC(=O)N1CCC(CN=c2cc3n(-c4ccc(Cl)cc4)c4ccccc4nc-3cc2Nc2ccc(Cl)cc2)CC1,100,≥16 µg/mL
CCCCCCCCO[C@@H]1O[C@@H](C(COCc2ccccc2)O[C@@H]2O[C@@H](C(COC(C)=O)OC(C)=O)[C@H](OC(C)=O)[C@H]2OC(C)=O)[C@H](OCc2ccccc2)[C@H]1OCc1ccccc1,NJ3404,>128 µg/mL
Cc1ccccc1Sc1ncnc2nc[nH]c12,NJ211,>12.8 µg/mL
CCCCCCCCOC1OC([C@H](CO)OC2O[C@@H](C(O)CO)[C@H](O)[C@H]2O)[C@H](O)[C@H]1O,NJ168,>128 µg/mL
CCCCCNC(=O)O[C@H]1C(O[C@@H]2[C@@H](C)[C@H](O[C@H]3C[C@@](C)(OC)[C@@H](OC(C)=O)[C@H](C)O3)[C@@H](C)C(=O)O[C@H](CC)[C@@](C)(O)[C@H](O)[C@@H](C)/C(=N/OCCCC3CCCCC3)[C@H](C)CC2(C)O)O[C@H](C)C[C@@H]1N(C)C,20034,0.1 µg/mL
O=c1nc(SCc2ccccn2)c2[nH]cnc2[nH]1,NJ211,>12.8 µg/mL
CCc1c(CNc2cc(C(F)(F)F)ccc2OC)cnc2nc(N)nc(N)c12,NJ3404,≤0.13 µg/mL
CC[C@H]1OC(=O)[C@H](C)[C@@H](O[C@H]2C[C@@](C)(OC)[C@@H](O)[C@H](C)O2)[C@H](C)[C@@H](O[C@@H]2O[C@H](C)C[C@H](N(C)C)[C@H]2O)[C@](C)(OC)C[C@@H](C)C(=O)[C@H](C)[C@@H](O)[C@]1(C)O,MO-1,2 µg/mL
CC[C@H]1OC(=O)[C@H](C)[C@@H](O[C@H]2C[C@@](C)(OC)[C@@H](OC(C)=O)[C@H](C)O2)[C@H](C)[C@@H](OC2O[C@H](C)C[C@H](N(C)C)[C@H]2OC(=O)NCCCCCCCCCCCCCCN(C)C)C(C)(O)C[C@@H](C)/C(=N\OCCCC2CCCCC2)[C@H](C)[C@@H](O)[C@]1(C)O,20034,0.39 µg/mL
COc1ccc(NCc2cnc3nc(N)nc(N)c3c2C)cc1F,NJ3404,≤0.13 µg/mL
CCCCNNC(=O)O[C@H]1[C@H](O[C@@H]2[C@@H](C)[C@H](O[C@H]3C[C@@](C)(OC)[C@@H](OC(C)=O)[C@H](C)O3)[C@@H](C)C(=O)O[C@H](CC)[C@@](C)(O)[C@H](O)[C@@H](C)/C(=N/OCCCC3CCCCC3)[C@H](C)CC2(C)O)O[C@H](C)C[C@@H]1N(C)C,20096 (clarithromycin-resistant),0.78 µg/mL
CCSc1nc(Cl)nc2nc[nH]c12,NJ211,>12.8 µg/mL
CCCNNC(=O)O[C@H]1[C@H](O[C@@H]2[C@@H](C)[C@H](O[C@H]3C[C@@](C)(OC)[C@@H](OC(C)=O)[C@H](C)O3)[C@@H](C)C(=O)O[C@H](CC)[C@@](C)(O)[C@H](O)[C@@H](C)/C(=N/OCCCC3CCCCC3)[C@H](C)CC2(C)O)O[C@H](C)C[C@@H]1N(C)C,20096 (clarithromycin-resistant),0.78 µg/mL
CC[C@H]1OC(=O)[C@H](C)[C@@H](O[C@H]2C[C@@](C)(OC)[C@@H](OC(C)=O)[C@H](C)O2)[C@H](C)[C@@H](OC2O[C@H](C)C[C@H](N(C)C)[C@H]2OC(N)=O)C(C)(O)C[C@@H](C)/C(=N\OCCCC2CCCCC2)[C@H](C)[C@@H](O)[C@]1(C)O,20092,>50 µg/mL

Repeating the final 2 entries:

compound,strain,result
CCCNNC(=O)O[C@H]1[C@H](O[C@@H]2[C@@H](C)[C@H](O[C@H]3C[C@@](C)(OC)[C@@H](OC(C)=O)[C@H](C)O3)[C@@H](C)C(=O)O[C@H](CC)[C@@](C)(O)[C@H](O)[C@@H](C)/C(=N/OCCCC3CCCCC3)[C@H](C)CC2(C)O)O[C@H](C)C[C@@H]1N(C)C,20096 (clarithromycin-resistant),0.78 µg/mL
CC[C@H]1OC(=O)[C@H](C)[C@@H](O[C@H]2C[C@@](C)(OC)[C@@H](OC(C)=O)[C@H](C)O2)[C@H](C)[C@@H](OC2O[C@H](C)C[C@H](N(C)C)[C@H]2OC(N)=O)C(C)(O)C[C@@H](C)/C(=N\OCCCC2CCCCC2)[C@H](C)[C@@H](O)[C@]1(C)O,20092,>50 µg/mL